What is called IC50 is the concentration that gives 50% inhibition. The EC50 is the concentration at which the effect is half-maximal.

Protein sequences, listed by entry. Tags and fused reporters are not part of them.
UniProt P62344, whole entry: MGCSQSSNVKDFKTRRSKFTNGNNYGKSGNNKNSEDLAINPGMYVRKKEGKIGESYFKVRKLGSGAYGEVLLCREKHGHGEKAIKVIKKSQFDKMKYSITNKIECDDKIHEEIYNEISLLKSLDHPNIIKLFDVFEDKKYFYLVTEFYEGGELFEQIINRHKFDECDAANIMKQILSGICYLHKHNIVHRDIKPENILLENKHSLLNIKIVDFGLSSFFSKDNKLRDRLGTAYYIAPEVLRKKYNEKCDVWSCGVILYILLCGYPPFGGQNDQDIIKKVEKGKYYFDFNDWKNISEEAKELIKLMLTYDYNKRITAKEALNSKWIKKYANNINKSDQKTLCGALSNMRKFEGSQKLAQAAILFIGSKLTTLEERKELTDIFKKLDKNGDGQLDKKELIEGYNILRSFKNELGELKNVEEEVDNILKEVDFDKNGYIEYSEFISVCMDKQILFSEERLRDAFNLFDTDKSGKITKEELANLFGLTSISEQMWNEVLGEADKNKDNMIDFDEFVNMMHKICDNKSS

The values that follow come from paper PMC3809513, “Imidazopyridazines as potent inhibitors of Plasmodium falciparum calcium-dependent protein kinase 1 (PfCDPK1): Preparation and evaluation of pyrazole linked analogues^” (Bioorganic & Medicinal Chemistry Letters, 2013).

One assay addresses PfCDPK1 (Plasmodium falciparum, UniProt P62344). In words: PfCDPK1 enzyme inhibition. The assay is classed as biochemical. The settings on record: read-out: PfCDPK1 IC50.
The next assay has as its system P. falciparum. In words: P. falciparum parasite growth assay (FACS, hydroethidine). The settings on record: in vitro parasite growth, compounds added 24 h post-invasion, cells recovered 48 h later; for EC50: read-out: Pf EC50. It counts as cell-based, Plasmodium falciparum. The method, then: [12] P. falciparum EC50 values were measured using an in vitro model of malaria parasite growth. Compounds were diluted into 2% DMSO and added to parasites 24 h post-invasion in a 96-well plate and incubated under static conditions. Cells were recovered 48 h later and processed for FACS analysis using hydroethidine to stain parasite DNA. Data was acquired using a Guava easyCyte Plus flow cytometer with ExpressPro software. Growth inhibition was calculated using the following formula: % growth inhibition = (1 − [parasitaemia of culture/parasitaemia of control culture]) × 100.

Each structure is given as a SMILES string.

In the case of `CN1CCC(Nc2ccc3ncc(-c4cnn(-c5cccc(F)c5)c4)n3n2)CC1`, at PfCDPK1, the concentration for half-maximal inhibition (IC50) was determined as 138 nM. For the same molecule, the 50% effective concentration (EC50) in the assay on P. falciparum was determined as 394 nM.

As for `CN1CCC(Nc2ccc3ncc(-c4cnn(-c5ccccc5)c4)n3n2)CC1`, the IC50 on PfCDPK1 was 71 nM. The “Pf EC50” value in the assay on P. falciparum is given as “sub-micromolar”.

On to `CN1CCC(Nc2ccc3ncc(-c4cnn(-c5ccc(F)cc5)c4)n3n2)CC1`, for which, on PfCDPK1, the IC50 stood at 45 nM. Besides, the EC50 with P. falciparum worked out at 561 nM.
